The text below walks through data of publication PMC5871717, “Transposase-DNA Complex Structures Reveal Mechanisms for Conjugative Transposition of Antibiotic Resistance” (Cell, 2018).

For the data set, the target named is 384C (Enterococcus faecalis) (UniProt Q7BP35). As to the kind of experiment: EMSA. Particulars: DNA presumed CI5, […] (50 mM HEPES pH 7.5, 250 mM NaCl, 5 mM DTT, 10% glycerol), recombinant protein, residues 82-384, protein details: 6xHis-SUMO removed by SenP2, label: 5'-32P in EMSA, none in crystals. In general terms: A gel shift assay detects complexes by their altered migration in electrophoresis.

Construct, isoform or probe ends are uncertain for at least one entry. At least one verdict was read from the data and is not stated in words by the source.

As to “TGCGATAACCTAAAATTTTATAGCAAAATTATATGGGATTTTAG / CTAAAATCCCATATAATTTTGCTATAAAATTTTAGGTTATCGCT [CI5]”, the binding result is listed as “binds”.
